According to PubChem BioAssay AID1662 (Broad Institute, 2009):
This is a selection; strong and weak results do not stand in their true shares. The source made the active and inactive calls.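 How the source made its calls: active means mean replicate score, as percent of positive control median, at least 50; inconclusive means mean below 50 but one replicate at or above 50; inactive means mean and every replicate below 50.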

Experiment: S. pyogenes SKKanGAS growth inhibitors in kanamycin, primary screen, streptokinase expression inhibitor project, SKKanGAS strain, BacTiter-Glo luminescence (AID 1662);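 further: strain carries kanamycin resistance gene driven by streptokinase promoter and grows in 40 µg/ml kanamycin; loss of luminescence reflects streptokinase promoter inhibition or plain growth inhibition; 0% = median of DMSO wells and 100% = positive control at its reference dose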
Conditions: 6 h, at 7.5 µM, stronger effect = higher value

Row | SMILES | inhibition
1 | COc1ccc(C(=O)NCC2(N3CCOCC3)CCCCC2)cc1OC | inactive: 4.2%
2 | CCOC(=O)N1CCC(Nc2ccc(C)cc2)CC1 | inactive: 3.15%
3 | N/C(=N\O)c1c(N)no[n+]1[O-] | inactive: 2.45%
4 | O=C(OC1CN2CCC1CC2)C1c2ccccc2C=Cc2ccccc21 (centres undefined) | inactive: 0.331%
5 | CCc1cc(C(=O)NCC2(N3CCCCC3)CCCCC2)sc1C | inactive: -26.6%
6 | N#Cc1ccc(C(=O)NCC2(N3CCCCC3)CCCCC2)cc1 | inactive: 3.48%
7 | CC(C)(C)OC(=O)N1CCC(N(C(=O)c2ccccc2)c2ccc(Cl)cc2)CC1 | inactive: 7.38%
8 | CN(C)C1(CNC(=O)c2cccc(C#N)c2)CCCCC1 | inactive: 4.62%
9 | CCCN1CCC(Nc2cc(OC)cc(OC)c2)CC1 | inactive: -1%
10 | c1ccc(CN2CCC(Nc3ccccc3)CC2)cc1 | inactive: -4.27%
11 | COc1cc(OC)cc(C(=O)NCC2(N3CCCCC3)CCCCC2)c1 | inactive: -2.16%
12 | Fc1ccccc1NC1CCN(Cc2ccccc2)CC1 | inactive: 2.16%
13 | Cc1ccc(C(=O)NCC2(N3CCCCC3)CCCCC2)o1 | inactive: 0.973%
14 | CCN1CCC(Nc2cccc(F)c2)CC1 | inactive: -4.72%
15 | CN(C)c1ccc(C(=O)NCC2(N3CCCCC3)CCCCC2)cc1 | inactive: 4.32%
16 | CN1CCC(Nc2ccc(F)c(Cl)c2)CC1 | inactive: 5.76%
17 | CCOc1ncccc1C(=O)NCC1(N2CCOCC2)CCCCC1 | inactive: -26%
18 | O=C(O)C1(Nc2ccccc2)CCN(Cc2ccccc2)CC1 | inactive: 1.9%
19 | CC(C)(C)OC(=O)N1CCC(Nc2ccccc2)CC1 | inactive: 5.87%
20 | CCCOc1ccc(C(=O)NCC2(N(C)C)CCCCC2)cc1 | inactive: 2.98%

Row | SMILES | inhibition
21 | COc1cccc(C(=O)N(c2cc(C)cc(C)c2)C2CCN(C(=O)OC(C)(C)C)CC2)c1 | inactive: 1.89%
22 | COc1cc(OC)cc(C(=O)NCC2(N3CCOCC3)CCCCC2)c1 | inactive: -13.6%
23 | CCC(CO)(C(=O)OC1CN2CCC1CC2)c1ccccc1 (centres undefined) | inactive: -8.26%
24 | CN1CCC(Nc2ccc(Cl)cc2)CC1 | inactive: 3.75%
25 | CCCOc1ccc(C)cc1CN(CCCl)CCCl | inactive: 7.27%
26 | CC(C)(C)OC(=O)N1CCC(N(C(=O)c2ccccc2)c2ccc(F)cc2)CC1 | inactive: 0.62%
27 | COc1ccc(C(=O)NCC2(N3CCCCC3)CCCCC2)c(OC)c1OC | inactive: 12.5%
28 | COc1ccc(C(=O)NCC2(N3CCCCC3)CCCCC2)cc1 | inactive: -5.06%
29 | O=C(NCC1(N2CCCCC2)CCCCC1)c1cccs1 | inactive: -2.21%
30 | O=C(NCC1(N2CCCCC2)CCCCC1)c1ccc(=O)[nH]c1 | inactive: -5.05%
31 | CSc1ccccc1C(=O)NCC1(N2CCCCC2)CCCCC1 | inactive: -1.32%
32 | Cc1cc(C)cc(N(C(=O)c2ccccc2)C2CCN(C(=O)OC(C)(C)C)CC2)c1 | inactive: 12.9%
33 | O=C(NCC1(N2CCCCC2)CCCCC1)c1ccc(Cl)nc1 | inactive: -6.07%
34 | O=C(NCC1(N2CCOCC2)CCCCC1)c1cc2ccccc2o1 | inactive: 1.88%
35 | O=C(OC1CN2CCC1CC2)C1c2ccccc2Oc2ccccc21 (centres undefined) | active: 60.9%
36 | N#CC1(Nc2ccccc2)CCN(Cc2ccccc2)CC1 | inactive: 3.3%
37 | CCOC(=O)N1CCC(Nc2ccc(OC)cc2)CC1 | inactive: -7.01%
38 | CCOc1ccc(C)cc1CN(CCCl)CCCl | inactive: 9.33%
39 | CCOC(=O)N1CCC(Nc2ccc(F)cc2)CC1 | inactive: -1.35%
40 | COc1ccc(NC2CCN(CCc3ccccc3)CC2)c(OC)c1 | inactive: -1.69%

Row | SMILES | inhibition
41 | O=C(NCC1(N2CCCCC2)CCCCC1)c1ccc(F)cc1 | inactive: 0.747%
42 | Cc1ccc(OCC(C)C)c(CN(CCCl)CCCl)c1 | inactive: 1.98%
43 | COc1cc(C(=O)NCC2(N(C)C)CCCCC2)ccc1OC(F)F | inactive: -3.37%
44 | CCOC(=O)N1CCC(Nc2cccc(C)c2)CC1 | inactive: 4.17%
45 | O=C(NCC1(N2CCCCC2)CCCCC1)c1ccc(OC(F)F)cc1 | inactive: 5%
46 | N#CC1(Nc2ccccc2)CCN(CCc2ccccc2)CC1 | inactive: 0.767%
47 | CCN1CCC(Nc2ccc(Cl)cc2)CC1 | inactive: 1.46%
48 | O=C(NCC1(N2CCCCC2)CCCCC1)c1cccc([N+](=O)[O-])c1 | inactive: -0.805%
49 | O=C(NCC1(N2CCCCC2)CCCCC1)c1cccc(C(F)(F)F)c1 | inactive: 4.16%
50 | O=C(NCC1(N2CCOCC2)CCCCC1)c1cc(=O)[nH]c2ccccc12 | inactive: -8.8%
51 | COc1cc(C(=O)NCC2(N3CCCCC3)CCCCC2)ccc1OC(F)F | inactive: -6.75%
52 | COc1ccc(NC2CCN(C(=O)OC(C)(C)C)CC2)cc1 | inactive: 1.08%
53 | CN1CCN(CCOC(=O)C(O)(c2ccccc2)c2ccccc2)CC1 | inactive: -19.3%
54 | CC(C)c1ccc(NC2CCN(C(=O)OC(C)(C)C)CC2)cc1 | inactive: 3.24%
55 | CN(C)c1cccc(C(=O)NCC2(N3CCCCC3)CCCCC2)c1 | inactive: -2.77%
56 | COc1ccc(CN(CCCl)CCCl)cc1Cl | inactive: 0.691%
57 | COc1cc(OC)c(C(=O)NCC2(N(C)C)CCCCC2)cc1OC | inactive: -3.58%
58 | CN1CCC(Nc2cccc(F)c2)CC1 | inactive: -18.8%
59 | CCCOc1ccc(C(=O)NCC2(N(C)C)CCCCC2)cc1OC | inactive: 6.79%
